Pooled drug test results. Numbers come from NIAID ChemDB, via PubChem.

Shared fields: tests in culture; species: Mycobacterium tuberculosis

MIC bound comes from a single tested concentration. Two numbers with a dash give a range or band. ECn: concentration that inhibits the pathogen or its effect by n%. An empty or dashed field is not shown. A number after MIC or MFC names an inhibition level or a share of isolates. Rows are shuffled and stem from different studies. Inhibition is in % at the dose shown (toxicity tests: loss of growth or viability).

compound,strain,read by,read-out,dose,value
O=C1O[C@@H](CO)CN1c1ccc(N2C=NOCC2)c(F)c1,20 clinical isolates,resazurin,MIC90,,500 µg/mL
CC1COc2c(N3CCN(C)CC3)c(F)cc3c(=O)c(C(=O)O)cn1c23,H37RV (PAS-R),,MIC,,0.63–1.25 µg/mL
OC[C@H](O)COCn1cc(Cn2ncc3c(NCc4ccccc4)ncnc32)nn1,H37Rv,BACTEC,inhibition,12.5 µg/mL,0%
CC(=O)N[C@H]1CN(c2ccc(N3C=NN(C)CC3)c(F)c2)C(=O)O1,H37Rv,GFP / reporter gene,MIC,,250 µg/mL
FC(F)(F)c1nc2c(Br)cc(Br)cc2[nH]1,My 331/88,,MIC,,32 µM
Cc1cccc(-c2nn(-c3ccccc3)cc2/C=C/c2nc3sccn3c(=O)c2-c2ccc(C#N)cc2)c1,H37Rv,colony count,MIC,,1.9 µg/mL
COC(=O)N[C@H]1CN(c2ccc(N3C=NN(C)CC3)c(F)c2)C(=O)O1,H37Rv,GFP / reporter gene,MIC,,250 µg/mL
O=[N+]([O-])c1cc(Sc2nc3ccc(I)cc3[nH]2)cc([N+](=O)[O-])c1,My 331/88,,MIC,,2 µM
CN(Cc1cc(Br)cc(Br)c1N)C1CCCCC1,5 isolates,,MIC,,128–256 µg/mL
CO/N=C1/CCN(c2nc(=O)c3cc(C(F)(F)F)cc([N+](=O)[O-])c3s2)CC1N,H37Rv,resazurin,MIC90,,0.436 µg/mL
C[C@H]1COC2(CCN(S(=O)(=O)c3cc(-[n+]4ccc(O)cc4)cc(C(F)(F)F)c3)CC2)O1,H37Rv,resazurin,MIC,,>50 µM
O=C(Cc1cccs1)N[C@@H]1C(=O)N2C(C(=O)[O-])=C(C[n+]3ccccc3)CS[C@H]12,Isolate 5,,MIC,,>16 µg/mL
COC(=O)NC[C@H]1CN(c2ccc(N3C=NOCC3)c(F)c2)C(=O)O1,H37Rv,GFP / reporter gene,MIC,,250 µg/mL
Cc1c(CN2CCSCC2)cc(-c2ccccc2)n1-c1ccccc1,,,MIC,,1 µg/mL
O=C(O)[C@H]1/C(=C/CO)O[C@@H]2CC(=O)N21,Isolate 3,,MIC,,>16 µg/mL
CC(=O)N[C@H]1CN(c2ccc(N3C=NN(C4=NC(=O)CS4)CC3)c(F)c2)C(=O)O1,20 clinical isolates,resazurin,MIC90,,250 µg/mL
C=C1CCCC(C)(C)[C@H]1CC/C(C)=C/CC/C(C)=C/Cn1c[n+](C)c2ncnc(N)c21,,,EC50,,<6.25 µg/mL
O=C1/C(=N/O)C(c2ccccc2)Oc2ccccc21,H37Rv,BACTEC,MIC bound,,>12.5 µg/mL
CC(=O)OCC1=C(C(=O)O)N2C(=O)[C@@H](NC(=O)Cc3cccs3)[C@H]2SC1,H37Ra,,MIC,,>16 µg/mL
O=[N+]([O-])c1cn2c(n1)OC[C@@H](OCc1ccc(C(F)(F)F)nc1)C2,H37Rv,resazurin,MIC90,,0.053 µM
CN(CC1CCCCC1)C1CCN(c2nc(=O)c3cc(C(F)(F)F)cc([N+](=O)[O-])c3s2)C1,16802 clinical isolate,resazurin,MIC90,,0.016 µg/mL
O=C(NC(=S)NCc1cccs1)c1csc([N+](=O)[O-])c1,,resazurin,MIC,,20 µg/mL
CON=C1CN(c2nc(=O)c3cc(C(F)(F)F)cc([N+](=O)[O-])c3s2)C1,16892 clinical isolate,resazurin,MIC90,,0.016 µg/mL
CO[C@H]1/C=C/O[C@@]2(C)Oc3c(C)c(O)c4c(O)c(c(/C=N/N5CCN(C)CC5)c(O)c4c3C2=O)NC(=O)/C(C)=C\C=C\[C@H](C)[C@H](O)[C@@H](C)[C@@H](O)[C@@H](C)[C@H](OC(C)=O)[C@@H]1C,Clinical isolate 6,,MIC,,0.1 µg/mL
O=c1nc(N2CCC(=NOCc3ccccc3)CC2)sc2c([N+](=O)[O-])cc(C(F)(F)F)cc12,16802 clinical isolate,resazurin,MIC90,,0.016 µg/mL
O=C1CSC(N2CCN(c3ccc(N4C[C@H](CO)OC4=O)cc3F)C=N2)=N1,20 clinical isolates,resazurin,MIC90,,1000 µg/mL
Cc1c(CN2CCN(C)CC2)cc(-c2ccccc2F)n1-c1ccccc1,103471,,MIC,,16 µg/mL
FC(F)(F)C(F)(F)C(F)(F)C(F)(F)c1nc2c(Cl)cc(Cl)cc2[nH]1,My 331/88,,MIC,,8 µM
CCON=C1CN(c2nc(=O)c3cc(C(F)(F)F)cc([N+](=O)[O-])c3s2)C1,16802 clinical isolate,resazurin,MIC90,,0.016 µg/mL
FC(F)(F)C(F)(F)C(F)(F)C(F)(F)c1nc2c(Br)cc(Br)cc2[nH]1,My 331/88,,MIC,,16 µM
NNC(=O)c1ccncc1,Clinical isolate 6,,MIC,,2 µg/mL
C=CCN1[C@@H](c2ccccc2)CC2(C[C@H]1c1ccccc1)N=c1c(c3c4c5c(C)c(O)c3c(O)c1=NC(=O)/C(C)=C\C=C\[C@H](C)[C@H](O)[C@@H](C)[C@H](O)[C@H](C)[C@H](OC(C)=O)[C@H](C)[C@@H](OC)/C=C/O[C@@](C)(O5)C4=O)N2,ATCC 35822 (isoniazid-resistant),,MIC,,0.02 µg/mL
O=C1N[C@@H]2C(=C[C@H](O)[C@@H](O)[C@H]2O)c2cc3c(c(O)c21)OCO3,H37Rv,BACTEC,MIC,,≥12.5 µg/mL
FC(F)(F)C(F)(F)C(F)(F)c1nc2c(Br)c(Br)c(Br)c(Br)c2[nH]1,My 331/88,,MIC,,4 µM
CC1(C)S[C@@H]2[C@H](NC(=O)[C@H](N)c3ccc(O)cc3)C(=O)N2[C@H]1C(=O)O,Isolate 4,,MIC,,>16 µg/mL
C=C/C=C/CC1=C(C)[C@@H](OC(=O)[C@@H]2[C@@H](C=C(C)C)C2(C)C)CC1=O,H37Rv,,MIC,,64 µg/mL
O=[N+]([O-])c1cc(Sc2nc3c(Br)c(Br)c(Br)c(Br)c3[nH]2)cc([N+](=O)[O-])c1,My 331/88,,MIC,,16 µM

The first 3 rows once more:

compound,strain,read by,read-out,dose,value
O=C1O[C@@H](CO)CN1c1ccc(N2C=NOCC2)c(F)c1,20 clinical isolates,resazurin,MIC90,,500 µg/mL
CC1COc2c(N3CCN(C)CC3)c(F)cc3c(=O)c(C(=O)O)cn1c23,H37RV (PAS-R),,MIC,,0.63–1.25 µg/mL
OC[C@H](O)COCn1cc(Cn2ncc3c(NCc4ccccc4)ncnc32)nn1,H37Rv,BACTEC,inhibition,12.5 µg/mL,0%